Anti-infective test results gathered from many reports (values: NIAID ChemDB through PubChem).

All rows: cytotoxicity tests; cells: MT-2; read-out: CC50

Lines come from different laboratories, so protocols vary. CCn: concentration that lowers growth or viability of the cells by n%.

compound,method,value
CCOC(=O)c1cc(O)c(O)c(O)c1,MTS,>200 µM
CCOC(=O)Nc1[nH]c2cccc(Br)c2c1C(=O)C(F)(F)F,ATP,>200 µM
Cc1nn(CC(=O)N[C@@H](Cc2ccccc2)C(=O)N(C)c2ccc3c(c2)OCO3)c(C)c1CCO,ATP,>20 µM
COC(=O)C(CCCCNC(=O)/C=C/c1cc(O)c(O)c(O)c1)NC(=O)/C=C/c1cc(O)c(O)c(O)c1,neutral red,>62 µM
COc1ccc(/C=C2\OC(=O)c3ccccc32)cc1,propidium iodide,>50 µM
FC(F)(F)c1cc(Nc2nnc(Cc3c(Cl)cccc3Cl)o2)ccc1Cl,MTT,>100 µM
O=C(N[C@H](Cc1cc(F)cc(F)c1)c1ncccc1Br)NS(=O)(=O)c1ccccc1Cl,XTT / absorbance,>100 µM
CCc1c(CCO)c(C)nn1CC(=O)N[C@@H](Cc1ccccc1)C(=O)N(C)c1ccc2c(c1)OCO2,ATP,>20 µM
COC(=O)c1ccc(Nc2ncc(Cc3c(Cl)cccc3Cl)o2)cc1,MTT,>100 µM
CC(=O)Oc1ccccc1C(=O)N1CCN(C(=O)C(=O)c2c[nH]c3ccccc23)CC1,XTT,>10 µM
COC(=O)C(CNC(=O)/C=C/c1ccc(O)c(O)c1)NC(=O)/C=C/c1ccc(O)c(O)c1,neutral red,>49 µM
Cc1nn(CC(=O)N[C@@H](Cc2ccccc2)C(=O)N(C)c2ccc3c(c2)OCO3)c(C(C)C)c1CCO,ATP,>20 µM
O=C1O/C(=C\c2ccccc2Cl)c2cc(Cl)c(Cl)cc21,propidium iodide,>153 µM
O=C(NCCC(NC(=O)c1cc(O)c(O)c(O)c1)C(=O)O)c1cc(O)c(O)c(O)c1,neutral red,>56 µM
CCc1ccc(Nc2ncc(Cc3c(F)cccc3F)o2)cc1,MTT,>100 µM
CCOC(=O)Nc1[nH]c2cccc(Br)c2c1C(O)(C(C)C)C(F)(F)F,ATP,33.2 µM
Cc1ccc2c(c1)/C(=C/c1ccc(Cl)cc1Cl)OC2=O,propidium iodide,>164 µM
Cc1c(CCO)c(C2CC2)nn1C(C)C(=O)N[C@@H](Cc1ccccc1)C(=O)N(C)c1ccc2c(c1)OCO2,ATP,>20 µM
COC(=O)C(CCNC(=O)/C=C/c1ccc(O)c(O)c1)NC(=O)/C=C/c1ccc(O)c(O)c1,neutral red,>66 µM
C=CCC(O)(c1c(NC(=O)OCC)[nH]c2ccc(Cl)cc12)C(F)(F)F,ATP,54.9 µM
N#Cc1ccc2c(Oc3ccc(F)cc3OCCn3ccc(=O)[nH]c3=O)cc(F)cc2c1,MTT,>100 µM
Clc1cccc(Cl)c1Cc1nnc(Nc2ccc(COCc3ccccc3)cc2)o1,MTT,81 µM
Cc1c(CCO)c(C2CC2)nn1C(C)(C)C(=O)N[C@@H](Cc1ccccc1)C(=O)N(C)c1ccc2c(c1)OCO2,ATP,>20 µM
COc1ccc(N(C)C(=O)[C@H](Cc2cc(F)cc(F)c2)NC(=O)c2ccc(F)c(C(=O)N[C@@H](Cc3cc(F)cc(F)c3)C(=O)N(C)c3ccc(OC)nc3)c2)cn1,XTT,100 µM
Nc1ncnc2c1ncn2C[C@@H](CO)OCP(=O)(O)O,propidium iodide,>100 µM
[N-]=[N+]=NC[C@H]1O[C@@H](n2cnc3c(N)ncnc32)[C@H](O)[C@@H]1CC(=O)O,neutral red,175 µM
O=C(/C=C/c1ccc(O)c(O)c1)NCCC(NC(=O)/C=C/c1ccc(O)c(O)c1)C(=O)O,neutral red,>39 µM
CCOC(=O)Nc1[nH]c2cc([N+](=O)[O-])ccc2c1C(O)(CC(C)=O)C(F)(F)F,ATP,>200 µM
CN(C(=O)[C@H](Cc1cc(F)cc(F)c1)NC(=O)NS(=O)(=O)N[C@@H](Cc1cc(F)cc(F)c1)C(=O)N(C)c1ccc2sc(=O)[nH]c2c1)c1ccc2sc(=O)[nH]c2c1,XTT,100 µM
Clc1ccc(Nc2nnc(Cc3c(Cl)cccc3Cl)o2)cc1,MTT,18 µM
CCCCC(O)(c1c(NC(=O)OCC)[nH]c2cccc(Cl)c12)C(F)(F)F,ATP,58 µM
COC(=O)Nc1ccc(-n2ccnc2[C@H](Cc2ccccc2)NC(=O)NS(=O)(=O)c2ccccc2F)cc1,XTT / absorbance,>100 µM
CN(C(=O)[C@H](Cc1cc(F)cc(F)c1)NC(=O)c1ccc(F)c(C(=O)N[C@@H](Cc2cc(F)cc(F)c2)C(=O)N(C)c2ccc(C3CC3)cc2)c1)c1ccc(C2CC2)cc1,XTT,100 µM
Cc1cccc2c(C(=O)C(=O)N3CCN(C(=O)c4ccccc4)CC3)c[nH]c12,XTT,>10 µM
Cc1nn(CCO)c(C(C)C)c1CC(=O)N[C@@H](Cc1ccccc1)C(=O)N(C)c1ccc2c(c1)OCO2,ATP,>20 µM
O=C(N[C@@H](Cc1cc(F)cc(F)c1)c1ncccc1Br)NS(=O)(=O)c1ccccc1Cl,XTT / absorbance,>100 µM
O=C(C(=O)N1CCN(C(=O)c2ccccc2)CC1)c1c[nH]c2ccc(F)cc12,XTT,>10 µM
C=CCN(C(=O)[C@H](Cc1cc(F)cc(F)c1)NC(=O)CC(C)(C)CC(=O)N[C@@H](Cc1cc(F)cc(F)c1)C(=O)N(CC=C)c1ccc(OC)cc1)c1ccc(OC)cc1,XTT,100 µM
CCOC(=O)Nc1[nH]c2ccc(Cl)cc2c1C(C)(O)C(F)(F)F,ATP,>200 µM
COc1ccc(Cc2nn(C)c(=O)c3ccccc23)cc1OC,propidium iodide,158 µM
O=C(C(=O)N1CCN(C(=O)c2ccccc2)CC1)c1c[nH]c2cccc(Cl)c12,XTT,>10 µM
CCCCCCCCCCCCCCCCCCOCCOP(=O)(O)CO[C@H](CO)Cn1cnc2c(N)ncnc21,propidium iodide,0.03 µM
CNC(=O)NC[C@H]1O[C@@H](n2cnc3c(NC(=O)Nc4ccccc4)ncnc32)[C@H](O)[C@@H]1CC(=O)O,neutral red,385 µM
O=C(C(=O)N1CCN(C(=O)c2ccccc2)CC1)c1c[nH]c2c(Cl)cccc12,XTT,>10 µM
COc1ccc(Cc2n[nH]c(=O)c3cc(Cl)c(Cl)cc23)cc1,propidium iodide,>149 µM
CCN(C(=O)[C@H](Cc1cc(F)cc(F)c1)NC(=O)NS(=O)(=O)N[C@@H](Cc1cc(F)cc(F)c1)C(=O)N(CC)c1ccc2oc(=O)n(CC)c2c1)c1ccc2oc(=O)n(CC)c2c1,XTT,50 µM
Cc1ccc(C[C@@H](C)[C@@H](C)Cc2ccc(C)c(C)c2)cc1C,luminescence,68.5 µM
COc1cc(C)c(/C=C/C2NCCc3cc(OCc4ccccc4)c(OC)cc32)cc1OCc1ccccc1,fluorescence,1.4 µM
COc1ccc(N(C)C(=O)[C@H](Cc2cc(F)cc(F)c2)NC(=O)Cn2c(=O)c3ccccc3n(CC(=O)N[C@@H](Cc3cc(F)cc(F)c3)C(=O)N(C)c3ccc(OC)cc3)c2=O)cc1,XTT,100 µM
COCc1ccc(Nc2nnc(Cc3c(Cl)cccc3Cl)o2)cc1Cl,MTT,33 µM
CSc1ccc(Cc2nn(C(C)(C)C)c(=O)c3ccccc23)cc1,propidium iodide,71.9 µM
CCc1nn(CC(=O)N[C@@H](Cc2ccccc2)C(=O)N(C)c2ccc3c(c2)OCO3)c(C)c1CCO,ATP,>20 µM